A mixed list of measured activities; the numbers were collected in NIAID ChemDB.

Shared fields: growth or infection tests; organism: HIV-1

Lines come from different laboratories, so protocols vary. Blank or dashed fields: not listed here. ECn is the concentration giving n% inhibition of infection, replication or growth.

| compound | read by | cell line | strain | changes | endpoint | value |
|---|---|---|---|---|---|---|
| Cc1cn([C@@H]2C=C[C@H](CO)O2)c(=O)[nH]c1=O | RT activity | PBMC | LAV | - | EC50 | >100 µM |
| CCCc1cc(=O)oc2c3c(c4c(c12)OC(C)(C)C=C4)O[C@@H](C)[C@H](C)[C@H]3O | cytopathic effect / MTT | MT-2 | A-17 (TIBO-RS) | - | EC50 | >0.2 µM |
| Nc1ccn([C@@H]2CC[C@H](CO)O2)c(=O)n1 | RT activity | PBMC | LAV | - | EC50 | 0.26 µM |
| CC(=O)c1cc(NCc2nc3c(Cl)ccc(Cl)c3o2)c(=O)[nH]c1C | p24 / ELISA | MT-4 | IIIB | - | EC95 | 0.1 µM |
| Cc1cn([C@@H]2C[C@@H](N)[C@H](CO)O2)c(=O)[nH]c1=O | RT activity | PBMC | LAV | - | EC50 | >10 µM |
| Cc1ccccc1CNC(=O)[C@H]1N(C(=O)[C@@H](O)[C@H](Cc2ccccc2)NC(=O)c2cccc(O)c2C)CSC1(C)C | cytopathic effect / XTT | CEM + CEM-SS | IIIB | - | EC50 | 0.049 µg/mL |
| Cc1cc(C)nc(N2C(=O)CSC2c2c(Cl)cccc2Cl)n1 | cytopathic effect | MT-4 | IIIB | - | EC50 | 0.017 µM |
| CC(=O)O[C@@]12C[C@@H](C)[C@@]3(O)[C@@H](C=C(CO)C[C@]4(O)C(=O)C(C)=C[C@@H]34)[C@@H]1C2(C)C | cytopathic effect / MTT | PBMC | IIIB | - | EC50 | 0.09 µg/mL |
| Clc1cc(/C=C/c2cccs2)nc2ccccc12 | luminescence | TZM-bl | UG070 | - | EC50 | 57.4 µM |
| Cc1ccnc2c1NC(=O)c1cccnc1N2C1CC1 | cytopathic effect | CEM | - | RT-Y188H | EC50 | >15 µM |
| CO[P@](=O)(c1cc(C)cc(/C=C/C#N)c1)c1c(C(N)=O)[nH]c2ccc(Cl)cc12 | - | PBMC | WT (BH10) | - | EC50 | 0.0004 µM |
| Fc1ccc(/C=C/c2cc(Cl)c3ccccc3n2)c(F)c1 | luminescence | TZM-bl | UG070 | - | EC50 | >166 µM |
| Fc1cccc(Cl)c1C1SCc2nc3ccc(C(F)(F)F)cc3n21 | cytopathic effect / MTT | MT-4 | IIIB | - | EC50 | >15 µM |
| Fc1ccc(/C=C/c2cc(Cl)c3ccccc3n2)c(C(F)(F)F)c1 | luminescence | TZM-bl | UG070 | - | EC50 | 75.78 µM |
| Nc1ccn([C@H]2CC[C@@H](CO)O2)c(=O)n1 | cytopathic effect / MTT | MT-2 | IIIB | - | EC50 | ~0.2 µM |
| Cc1ccc(-c2ccc3c(c2)C=C(C(=O)Nc2ccc(C[N+](C)(C)C4CCOCC4)cc2)CCC3)cc1 | entry / luminescence | TZM-bl | VB59 | - | EC50 | 3.63 µM |
| Cc1cc(C)nc(N2C(=O)CSC2c2c(F)cccc2Cl)n1 | cytopathic effect | MT-4 | IIIB | - | EC50 | 0.038 µM |
| Nc1nc(=O)n([C@@H]2C[C@@H](F)[C@H](CO)O2)cc1F | RT activity | PBMC | LAV | - | EC50 | >100 µM |
| Fc1cc2nc3n(c2cc1F)C(c1c(Cl)cccc1Cl)SC3 | cytopathic effect / MTT | MT-4 | IIIB | - | EC50 | >17.6 µM |
| Nc1ncnc2c1ncn2[C@@H]1C[C@@H](N)[C@H](CO)O1 | RT activity | PBMC | LAV | - | EC50 | >10 µM |
| COc1cc(C)nc(N2C(=O)CSC2c2c(Cl)cccc2Cl)n1 | cytopathic effect | CEM | - | RT-K103N | EC50 | 21.6 µM |
| Cc1cn([C@H]2C=C[C@@H](CO)O2)c(=O)[nH]c1=O | p24 | PBMC | LTLV-IIIB | - | EC50 | 0.018 µM |
| Nc1nc(=O)n([C@@H]2C=C[C@H](CO)O2)cc1F | RT activity | PBMC | LAV | - | EC50 | 0.034 µM |
| O=C1CSC(c2c(Cl)cccc2Cl)N1c1ncccn1 | cytopathic effect | MT-4 | IIIB | - | EC50 | 0.227 µM |
| O=C(c1ccccc1)c1ccc2nc3n(c2c1)C(c1c(Cl)cccc1Cl)SC3 | cytopathic effect / MTT | MT-4 | IIIB | - | EC50 | >1.3 µM |
| CCCc1cc(=O)oc2c3c(c4c(c12)OC(C)(C)C=C4)O[C@H](C)[C@@H](C)/C3=N/O | cytopathic effect / MTT | CEM + CEM-SS | IIIB | - | EC50 | >15.8 µM |
| CCc1cc(NCc2cc3c(Cl)ccc(Cl)c3o2)c(=O)[nH]c1C | p24 / ELISA | MT-4 | IIIB | - | EC50 | <0.05 µM |
| Cc1ccc(/C=C/c2cc(Cl)c3ccccc3n2)cc1 | luminescence | TZM-bl | VB59 | - | EC50 | 7.51 µM |
| Nc1ncnc2c1ncn2[C@@H]1CC[C@H](CO)O1 | RT activity | PBMC | LAV | - | EC50 | >10 µM |
| Fc1cccc(F)c1C1SCc2nc3ccccc3n21 | cytopathic effect | CEM | IIIB | - | EC50 | 1.39 µM |
| Nc1ccn([C@@H]2C[C@@H](F)[C@H](CO)O2)c(=O)n1 | RT activity | PBMC | LAV | - | EC50 | 82 µM |
| CCCc1cc(=O)oc2c3c(c4c(c12)OC(C)(C)C=C4)O[C@H](CC)[C@H](C)[C@@H]3O | cytopathic effect / MTT | CEM + CEM-SS | IIIB | - | EC50 | >20.9 µM |
| Fc1ccc2c(c1)nc1n2C(c2c(F)cccc2Cl)SC1 | cytopathic effect / MTT | MT-4 | IIIB | - | EC50 | 6.5 µM |
| Nc1ccn([C@H]2CC[C@@H](CO)O2)c(=O)n1 | syncytia | CEM | HXB2 | RT-M41L T215Y | EC50 | 0.038 µg/mL |
| Clc1cc(/C=C/c2ccc(N3CCOCC3)cc2)nc2ccccc12 | luminescence | TZM-bl | UG070 | - | EC50 | 61 µM |
| CCc1cc(NCc2nc3c(C)ccc(C)c3o2)c(=O)[nH]c1C | p24 / ELISA | MT-4 | IIIB | - | EC50 | <0.05 µM |
| COc1ccc2c(c1)C1(c3ccccc3)SCCN1C2=O | cytopathic effect / MTT | CEM + CEM-SS | IIIB | - | EC50 | 1.18 µM |
| Cc1cn([C@@H]2O[C@H](CO[Si](C)(C)C(C)(C)C)C3(OS(=O)(=O)C=C3N)[C@H]2O[Si](C)(C)C(C)(C)C)c(=O)n(C)c1=O | syncytia | CEM | HXB2 | - | EC50 | 0.05 µg/mL |
| Nc1nc(=O)n([C@@H]2CC[C@H](CO)O2)cc1F | RT activity | PBMC | LAV | - | EC50 | 0.021 µM |
| Cc1ccnc(N2C(=O)CSC2c2c(Cl)cccc2Cl)n1 | cytopathic effect | CEM | - | RT-K103N | EC50 | 17.9 µM |
| Cc1ccccc1CNC(=O)[C@H]1N(C(=O)[C@@H](O)[C@H](Cc2ccccc2)NC(=O)c2ccc(F)c(O)c2C)CSC1(C)C | cytopathic effect / XTT | CEM + CEM-SS | IIIB | - | EC50 | 0.055 µg/mL |
| Cc1cn([C@H]2C[C@H](N=[N+]=[N-])[C@@H](CO)O2)c(=O)[nH]c1=O | syncytia | CEM | HXB2 | RT-M41L T215Y | EC50 | ≥25 µg/mL |
| O=c1[nH]cnc2c1ncn2[C@H]1CC[C@@H](CO)O1 | plaque count | HT4 + HT4 LacZ-1 | RTMC (RT-Y181C) | RT-D67N K70R Y181C T215Y K219Q | EC50 | 1.4 µM |

A second listing of 5 rows from above:

compound	read by	cell line	strain	changes	endpoint	value
COc1cc(C)nc(N2C(=O)CSC2c2c(Cl)cccc2Cl)n1	cytopathic effect	CEM	-	RT-K103N	EC50	21.6 µM
Cc1ccccc1CNC(=O)[C@H]1N(C(=O)[C@@H](O)[C@H](Cc2ccccc2)NC(=O)c2ccc(F)c(O)c2C)CSC1(C)C	cytopathic effect / XTT	CEM + CEM-SS	IIIB	-	EC50	0.055 µg/mL
COc1ccc2c(c1)C1(c3ccccc3)SCCN1C2=O	cytopathic effect / MTT	CEM + CEM-SS	IIIB	-	EC50	1.18 µM
O=c1[nH]cnc2c1ncn2[C@H]1CC[C@@H](CO)O1	plaque count	HT4 + HT4 LacZ-1	RTMC (RT-Y181C)	RT-D67N K70R Y181C T215Y K219Q	EC50	1.4 µM
Fc1cccc(F)c1C1SCc2nc3ccccc3n21	cytopathic effect	CEM	IIIB	-	EC50	1.39 µM